Pooled drug test results. Numbers come from NIAID ChemDB, via PubChem.

Common to all: enzyme or target tests; protein: CCR5; endpoint: IC50

Rows are shuffled and stem from different studies. ICn: concentration for n% inhibition.

structure | method | result
Cc1ccc(-c2ccc3c(c2)C=C(C(=O)Nc2ccc(CN(C)C4CCOCC4)cc2)CCS3(=O)=O)cc1 | radiometric | 0.2 µM
CS(=O)(=O)N1CCC(C(=O)N(CCCN2CCC(Cc3ccc(N)cc3)CC2)c2ccc(Cl)c(Cl)c2)CC1 | radiometric | 0.0092 µM
CCN(C(=O)Cc1ccc(S(C)(=O)=O)cc1)C1CCN(CC[C@H](NC(=O)C2CCN(C(=O)C3CC3)CC2)c2ccccc2)CC1 | fluorescence | <50 µM
O=C(c1ccccc1)N1CCC(C(=O)N(CCCN2CCC(Cc3ccccc3)CC2)c2ccccc2)CC1 | radiometric | 0.033 µM
O=C(NC[C@@H](CCN1CCC2(CC1)CS(=O)(=O)c1ccccc12)c1ccc(Cl)c(Cl)c1)c1ccccc1 | radioligand binding / binding | >0.1 µM
CCCCOCCOc1ccc(-c2ccc3c(c2)C=C(C(=O)Nc2ccc(S(=O)(=O)Cc4cncn4CCC)cc2)CCN3CC(C)C)cc1.CCOC(C)=O | radiometric | 0.033 µM
N#Cc1ccc(NC(=O)N(CCCN2CCC(Cc3ccc(F)cc3)CC2)c2ccccc2)cc1 | radiometric | 0.015 µM
CCCCOCCOc1ccc(-c2ccc3c(c2)C=C(C(=O)Nc2ccc(S(=O)Cc4nccn4C)cc2)CCN3CC(C)C)cc1 | radiometric | 0.014 µM
NC(=O)c1ccc(NC(=O)N(CCCN2CCC(Cc3ccc(F)cc3)CC2)c2ccccc2)cc1 | radiometric | 0.029 µM
CCCCOCCOc1ccc(-c2ccc3c(c2)C=C(C(=O)Nc2ccc(S(=O)Cc4cncn4CCC)cc2)CCN3CCC)cc1 | radiometric | 0.0043 µM
CN(C[C@@H](CCN1CCC2(CC1)CS(=O)c1ccccc12)c1ccc(Cl)c(Cl)c1)S(=O)(=O)c1cccs1 | radioligand binding / binding | 0.066 µM
CCN(C(=O)Cc1ccc(S(C)(=O)=O)cc1)C1CCN(CCC(c2ccccc2)N2CCC(C(C)=O)CC2)CC1 | radiometric | 0.309 µM
Cc1ccc(-c2ccc3c(c2)C=C(C(=O)Nc2ccc(C[N+](C)(C)C4CCOCC4)cc2)CCC3)cc1 | radiometric | 0.0014 µM
CC(=O)N1CCCC(C(=O)N(CCCN2CCC(Cc3ccccc3)CC2)c2ccccc2)C1 | radiometric | 0.68 µM
CCN(C(=O)Cc1ccc(S(C)(=O)=O)cc1)C1CCN(CC[C@H](NC(=O)C2CCN(C(=O)COCCOC)CC2)c2ccccc2)CC1 | fluorescence | <50 µM
O=S1CC2(CCN(CC[C@H](COCc3ccccc3)c3ccc(Cl)c(Cl)c3)CC2)c2ccccc21 | radioligand binding / binding | >1 µM
O=C(Nc1ccccc1)N(CCCN1CCC(Cc2ccccc2)CC1)c1ccccc1 | radiometric | 0.018 µM
CN(C[C@@H](CCN1CCC2(CC1)CS(=O)c1ccccc12)c1ccc(Cl)c(Cl)c1)S(=O)(=O)c1ccc2c(c1)CCC2 | radioligand binding / binding | 0.07 µM
O=C(Nc1ccc(Cl)cc1)N(CCCN1CCC(Cc2ccccc2)CC1)c1cccc(Cl)c1 | radiometric | 0.019 µM
CCN(C(=O)Cc1ccc(S(C)(=O)=O)cc1)C1CCN(CC[C@H](NC(=O)C2CCN(S(=O)(=O)c3ccc(S(C)(=O)=O)cc3)CC2)c2ccccc2)CC1 | fluorescence | <50 µM
O=C(C1CCNCC1)N(CCCN1CCC(Cc2ccccc2)CC1)c1ccccc1 | radiometric | 4.3 µM
CCCCOCCOc1ccc(-c2ccc3c(c2)C=C(C(=O)Nc2ccc(SCc4cncn4CCC)cc2)CCN3CC(C)C)cc1 | radiometric | 0.019 µM
CC(=O)N1CCC(C(=O)N(CCCN2CCC(Cc3ccccc3)CC2)c2ccc(Cl)c(Cl)c2)CC1 | radiometric | 0.0019 µM
CCCCOCCOc1ccc(-c2ccc3c(c2)C=C(C(=O)Nc2ccc([S@](=O)Cc4nncn4CCC)cc2)CCN3CCC)cc1 | radiometric | 0.0058 µM
CCCCOCCOc1ccc(-c2ccc3c(c2)C=C(C(=O)Nc2ccc(CN(C)C4CCOCC4)cc2)CCN3CC2CC2)cc1 | radiometric | 0.0045 µM
CCN(C(=O)Cc1ccc(S(C)(=O)=O)cc1)C1CCN(CCC(c2cccc(F)c2)N2CCN(c3ccc(F)cc3)CC2)CC1 | radiometric | 0.004 µM
CS(=O)(=O)N1CCC(C(=O)N(CCCN2CCC(Cc3ccc(C(F)(F)F)cc3)CC2)c2ccc(Cl)c(Cl)c2)CC1 | radiometric | 0.0087 µM
CCCCOCCOc1ccc(-c2ccc3c(c2)C=C(C(=O)Nc2ccc([S@@](=O)Cc4nncn4CCC)cc2)CCN3CCC)cc1 | radiometric | 0.0016 µM
Cc1ccc(-c2ccc3c(c2)C=C(C(=O)Nc2ccc(CN(C)C4CCOCC4)cc2)CCN3C)cc1 | radiometric | 0.13 µM
CCN(C(=O)Cc1ccc(S(C)(=O)=O)cc1)C1CCN(CCC(c2cccc(F)c2)C2CCN(C(=O)Nc3ccccc3)CC2)CC1 | radiometric | 0.006 µM
CCCCOCCOc1ccc(-c2ccc3c(c2)C=C(C(=O)Nc2ccc(CN(C)C4CCOCC4)cc2)CCN3CC2CCC2)cc1 | radiometric | 0.012 µM
CS(=O)(=O)N1CCC(C(=O)N(CCCN2CCC(Cc3ccccc3)CC2)c2ccccc2)CC1 | radiometric | 0.04 µM
CCCCOCCOc1ccc(-c2ccc3c(c2)C=C(C(=O)Nc2ccc(CN(C)C4CCOCC4)cc2)CCN3CCC)cc1 | radiometric | 0.0035 µM
CCN(C(=O)Cc1ccc(S(C)(=O)=O)cc1)C1CCN(CC[C@H](NC(=O)Oc2ccc(Cl)cc2)c2ccccc2)CC1 | fluorescence | <50 µM
CCO/N=C(\c1ccc(Br)cc1)C1CCN(C2(C)CCN(C(=O)c3c(C)cc[n+]([O-])c3C)CC2)CC1 | fluorescence | <1 µM
CCN(C(=O)Cc1ccc(S(C)(=O)=O)cc1)C1CCN(CCC(c2ccccc2)C2CCN(S(=O)c3ccccc3)CC2)CC1 | radiometric | 0.001 µM
CCN(C(=O)Cc1ccc(S(C)(=O)=O)cc1)C1CCN(CC[C@H](NC(=O)Oc2ccc(F)cc2)c2ccccc2)CC1 | fluorescence | <50 µM
CN1CC(C(=O)N(CCCN2CCC(Cc3ccc(F)cc3)CC2)c2ccccc2)CC1=O | radiometric | 0.31 µM
CN1CC(C(=O)N(CCCN2CCC(Cc3ccccc3)CC2)c2ccccc2)CC1=O | radiometric | 0.48 µM
COc1ccc(N(CCCN2CCC(Cc3ccc(F)cc3)CC2)C(=O)C2CCN(C(C)=O)CC2)cc1Cl | radiometric | 0.03 µM
CCN(C(=O)NCc1ccc(S(C)(=O)=O)cc1)C1CCN(CCC(c2ccccc2)N2CCN(S(=O)(=O)CC)CC2)CC1 | radiometric | 0.006 µM